Positions of bridges follow the written chain, without caps; N, C: chain ends. Residues, ends and D or L forms follow the SMILES beside them.
System: S. aureus (ATCC 25923)
Type: cell-based, Staphylococcus aureus
Experimental: The temperature, serum, and pH stability of antimicrobial peptide Brevinin-1BW was investigated. S. aureus (ATCC 25923) was used to determine its stability. The antimicrobial peptide solution was prepared and placed at −20 °C, 4 °C, 37 °C, 60 °C, and 100 °C for 1 h. The MIC was measured with 96-well plate method to detect the effect of temperature. […] The pH stability was achieved by inoculating S. aureus into MH medium and culturing them with shaking to reach the logarithmic growth phase. This was then diluted to 10^6 CFU/mL. Brevinin-1BW was incubated in PBS at various pH values, pH = 2 or 12, for 1 h at 37 °C. The minimal inhibitory concentrations (MIC) of the peptides were then determined. All the above experiments were repeated more than three times.

Structure (SMILES): CC[C@H](C)[C@@H]1NC(=O)[C@H](CCCCN)NC(=O)[C@@H](NC(=O)[C@H](Cc2ccccc2)NC(=O)[C@@H](NC(=O)[C@@H](NC(=O)[C@@H]2CCCN2C(=O)[C@H](CC(C)C)NC(=O)[C@H](Cc2ccccc2)NC(=O)[C@H](CO)NC(=O)[C@H](C)NC(=O)[C@H](C)NC(=O)[C@H](CC(C)C)NC(=O)CNC(=O)[C@H](C)NC(=O)[C@H](CC(C)C)NC(=O)[C@H](CC(C)C)NC(=O)[C@@H]2CCCN2C(=O)[C@H](CC(C)C)NC(=O)[C@@H](N)Cc2ccccc2)[C@@H](C)O)[C@@H](C)CC)CSSC[C@@H](C(=O)O)NC(=O)[C@H](CCCCN)NC(=O)[C@H](CCCNC(=N)N)NC(=O)[C@H](CO)NC1=O [Brevinin-1BW] (H-FLPLLAGLAASFLPTIFCKISRKC-OH; disulfide 18-24)
- change of MIC after incubation with serum (10% serum, 37 °C, 1 h): twice as high
- antibacterial activity after incubation with a different pH (PBS pH 2 or 12, 1 h, 37 °C): still stable
- change of MIC with temperature (temperature range of −20 °C to 100 °C, 1 h): did not change significantly
